Measured values reported in BindingDB's records for 12904075.

By UniProt entry, the sequences of proteins in these tests, tags left out. Where a name states a change or a piece, a line headed by the entry shows the natural chain unless it says otherwise.
UniProt Q14761: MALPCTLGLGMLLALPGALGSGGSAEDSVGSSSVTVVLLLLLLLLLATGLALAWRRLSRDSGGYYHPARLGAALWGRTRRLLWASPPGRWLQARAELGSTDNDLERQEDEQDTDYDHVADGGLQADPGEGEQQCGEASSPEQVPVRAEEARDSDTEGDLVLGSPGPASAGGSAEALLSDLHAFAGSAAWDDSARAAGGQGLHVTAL

Target: Protein tyrosine phosphatase receptor type C-associated protein (Homo sapiens, UniProt Q14761)
Experiment: ASSAY_NAME: ChEMBL_210866 (CHEMBL812679) DESCRIPTION: Inhibitory activity against Tyrosine phosphatase from Yersinia (Yop protein)

SMILES: O=C(O)CCCCCP(O)(O)=S
- Ki: 29 mM

SMILES: O=C(O)c1cccc2ccc(CP(O)(O)=S)cc12
- Ki: 0.2 mM

SMILES: O=C(O)CCCCCP(=O)(O)O
- Ki: 42 mM
